Measured values from patent US20120121591A1 (priority 2009, published 2012).

Tested on: rat peritoneal mast cells

Monovalent aKLH HC-ShK(1-35 Q16K) Ab: anti-KLH IgG2 antibody with [Lys16]ShK fused to the C-terminus of one heavy chain
Degranulation / histamine release of rat peritoneal mast cells: caused degranulation
